Experimental data from the supplement of paper PMC9931576.
Human monoclonal antibodies against the spike receptor-binding domain (heavy:light variable regions). IC50 against pseudoviruses bearing the spike of naturally observed variants; lower = stronger; >10 µg/ml means not reached at the top dose. No active / inactive call. The stated detection limit is 0.0005 µg/ml; values near or below 0.001 µg/ml lie at the floor of the assay.

Columns and labels:
Experiment in all cases: pseudovirus neutralization IC50; higher = weaker neutralization
[1] = molecular target: SARS-CoV-2 Omicron BA.1 spike pseudovirus
Protocol: (§1)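 Single-round VSV luciferase pseudovirus mixed with antibody dilutions for 1 h and put on Huh-7 cells for about a day; IC50 from the dose curve.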

[2] = molecular target: SARS-CoV-2 Omicron BA.2 spike pseudovirus
Protocol: as §1

[3] = molecular target: SARS-CoV-2 Omicron BA.2.75 spike pseudovirus
Protocol: as §1

[4] = molecular target: SARS-CoV-2 Omicron BA.5 spike pseudovirus
Protocol: as §1

[5] = molecular target: SARS-CoV-2 Omicron BQ.1.1 spike pseudovirus
Protocol: as §1

[6] = molecular target: SARS-CoV-2 Omicron XBB spike pseudovirus
Protocol: as §1

[7] = molecular target: SARS-CoV-2 early D614G spike pseudovirus
Protocol: as §1

Binder | pseudovirus neutralization IC50 [1] [µg/mL] | pseudovirus neutralization IC50 [2] [µg/mL] | pseudovirus neutralization IC50 [3] [µg/mL] | pseudovirus neutralization IC50 [4] [µg/mL] | pseudovirus neutralization IC50 [5] [µg/mL] | pseudovirus neutralization IC50 [6] [µg/mL] | pseudovirus neutralization IC50 [7] [µg/mL]
BD56-1941 (protein) chain 1: EVQLVESGGGLVQPGGSLRLSCAASGITVSSNYMTWVRQAPGKGLEWVSVIYAGGSTFYADSVKDRFTISRDNSKNTLYLQMKSLRAEDTAVYYCVRDLVIWGMDVWGPGTTVTVSS chain 2: EILLTQSPSSLSASVGDRVTLTCRASQGINNNLAWYQQKSGKAPKLLIYGASTLQSGVPSRFSGSGSGTDFTLTISSLQPEDFATYYCQLLDSYPQTFGQGTKVEIK | 0.0771 | 0.0409 | 0.0677 | 0.0182 | 3.67 | 2.9 | 0.00664
BD57-0111 (protein) chain 1: QVQLVESGGGVVQPGRSLRLSCAASGFTFSTFAMHWVRQAPGKGLEWVAVILYDGSYKDYGDSVKGRFTISRDNSKNTLYLQMNSLRADDTAVYYCARDQGKMTTHFDYWGQGTLVTVSS chain 2: DIQMTQSPSSLSASVGDRVTITCRASQSISGYLNWYQQKPGKAPKLLIYDASSLQSGVPSRFSGSGSGTDFTLTIRSLEPEDFATYYCQQSYATPPWTFGQGTKVEIK | 1.86 | 2.76 | 2.54 | 2.21 | 1.38 | 3.32 | 2.34
BD56-1944 (protein) chain 1: EVQLVESGGGLVQPGGSLRLSCAASGFTVSSNYMNWVRQAPGKGLEWVSVVYTGVSAYYADSVKGRFTISRDYSKNTLYLQMDSLRVEDTAVYYCARVWYCGSDCEAFDIWGQGTMVTVSS chain 2: QSVLTQPPSVSGAPGQRVSISCTGSSSNIEAGYDVNWYQQLPGTAPKLLIYGDSNRPSGVPDRFSGSKSGTSASLAITGLQAEDEADYYCQSYDNSLRGSVFGGGTKLTVL | 0.111 | 0.204 | 0.0838 | > 10 | > 10 | > 10 | 0.000668
BD57-0102 (protein) chain 1: EVHLVESGGGLVQPGRSLRLSCAASGFTFDDYAMHWVRQAPGKGLEWVSGISWNSGGIAYADSVRGRFTISRDSAKNSLYLQMNSLRPEDTAFYYCAKDIGAGHGDYFDFWGQGTLVTVSS chain 2: SYVLTQPPSVSVAPGMTARITCGGDQIGSKSVHWYQQKPGQAPVLVVYYDSDRPSGIPDRFSGSNSGNTATLTISRVEAGDEADYYCQVWGSSSDHPYVFGGGTKVTVL | 2.6 | 4.86 | 4.47 | 4.68 | > 10 | 4.85 | > 10
BD57-0115 (protein) chain 1: EVQLAQSGAEVKKPGESLKISCKGSGYSFNTYWIGWVRQMPGKGLEWMGIIYPEDSDTRYSPSFQGQVTISADKSINTAYLQWNSLKASDSAMYYCALIVGASNLGCFDYWGQGTTVTVSS chain 2: EIVMTQSPATLSVSPGERATLSCRASQSVSDNLAWYQQKPGQAPRLLIYGASSRATGIPGRFSGSGSGTEFTLTISSLQSEDFAVYYCQQYNNWYTFGQGTKLEIK | 4.64 | 5.45 | 2.17 | 2.94 | > 10 | 7.99 | > 10
BD57-0105 (protein) chain 1: EVQLVESGGGLVQPGRSLRLSCAASGFTFDDFAMHWVRQAPGKGLEWVSGITWNGDIIAYADSVKGRFTISRDNPRNSLYLQMNGLRPEDTALYYCVKGEKQQLINEPLDYWGQGTLVTVSS chain 2: SSVLTQPPSVSVAPGKTARITCGGNDIGSKNVHWYQQKPGQAPVLVIYYDNDRPSGIPERFSGSNSGNTATLTISRVEAGDEADYYCQVWDPHVLFGGGTKLTVL | 4.68 | 6.11 | 4.11 | 4.63 | > 10 | > 10 | > 10
BD57-0119 (protein) chain 1: QVQLVQSGAELKKPGSSVKVSCKSSGGSFSIYAISWVRQDPGQGLVWMGGIIPITNRPTYAQKFLGRVTITADESTSTAYMELSSLTSDDTGVYYCARDSTLRDWKPGLTWFDPWGQGTLVTVSS chain 2: DIQMTQSPSSLSASVGDRVTITCRASLNINDFLNWYQQKPGKAPKLLIYAASSLQTGVPSRFSGSGSGTDFTLTISSLQPEDLAIYYCQQSFSPPRTFGQGTKVEIK | 0.354 | 0.262 | 0.00183 | 2.23 | > 10 | > 10 | 1.18
